Assay results reported in patent publication US20240158472A1, “FERRITIN VARIANTS WITH INCREASED STABILITY AND COMPLEXATION ABILITY” (Cellis AG, priority 2021, published 2024).

Assay: Native PAGE gel after doxorubicin encapsulation and purification
Type: physicochemical
Conditions: after doxorubicin encapsulation, mutants carry added K54E, K72E, K87Q, K144E, C91S, C103S
Excerpt: Native PAGE gel has been performed in order to check the size of the protein after encapsulation and purification. […] A greater degree of aggregation adversely affects the loading efficiency and protein recovery after loading with doxorubicin (FIG. 3).

WT: human wild-type heavy chain ferritin (SEQ ID NO. 1)
forms on native gel (aggregates versus 24-mers) (listed as wild type ferritin): mainly forms of double glued frames, aggregates of cages and larger forms of aggregates | forms on native gel (aggregates versus 24-mers) (listed as wild type protein): heterogeneity of forms
